PubChem BioAssay AID1259414 | Drosophila RNAi Screening Center | 2018
Purpose: 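Genome-wide screen for host control of endosymbiont load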 (primary screen). System: Drosophila JW18 cells infected with Wolbachia. Reagent: long dsRNA against Drosophila genes, 0.25 µg dsRNA per well of a 384-well plate. Timing: 5 days. Challenge: cells persistently infected with Wolbachia before knock-down; no added drug. Read-out: 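Automated imaging of bacterial rRNA staining divided by host cell count, reported as plate-normalised robust z-score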. Reading the numbers: Wolbachia per cell robust z: higher = more Wolbachia per host cell than the plate typical. Call rule: 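Active if absolute robust z reaches 1.5 in two or more of three replicates, leaving out multi- or no-target dsRNAs, genes unexpressed in JW18 and A1 wells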.
In all, the deposit lists about 24,000 reagents; shown is a random part of those with a known target gene and a result. Of all reagents, about 1,210 (5%) got an active call. 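Inactive calls also include excluded dsRNAs with several or no targets, genes unexpressed in JW18, and well A1, regardless of score.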 Names joined by + are all predicted targets of the reagent.

Gene	DRSC id	Wolbachia per cell robust z, rep 1	Wolbachia per cell robust z, rep 2	Wolbachia per cell robust z, rep 3	activity call
Scp1	DRSC20799	-0.19	0.607	-0.891	inactive
Scp1	DRSC20803	0.93	-0.304	-0.242	inactive
Scp1	DRSC20806	0.493	0.374	0.393	inactive
ppan	DRSC17030	-0.356	-0.778	-0.284	inactive
ppan	DRSC28476	0.282	0.332	0.399	inactive
CG32452	DRSC11581	-0.361	-0.657	0.135	inactive
CG32452	DRSC22250	0.667	-0.974	-0.883	inactive
CG32452	DRSC26705	-0.522	-0.026	0.685	inactive
CG10301	DRSC14226	-1.36	-2.55	0.271	inactive
CG9123	DRSC20156	0.14	0.831	-0.712	inactive
Src64B	DRSC08700	0.317	-0.663	-4.88	inactive
Src64B	DRSC36619	-0.0321	0.349	0.229	inactive
Hsp26	DRSC11189	-0.377	0.793	-0.7	inactive
Inx5	DRSC20051	-0.392	-0.147	0.73	inactive
p38c	DRSC22939	-0.905	-0.827	-0.378	inactive
CG42521	DRSC10154	-4.14	-1.34	-1.11	inactive
CG8924	DRSC23027	0.819	0.0351	-3.81	inactive
CG12321	DRSC14499	-2.86	-5.52	-1.74	inactive
CG12321	DRSC28965	0.199	1.1	1	inactive
stj	DRSC06124	0.142	1.14	0.871	inactive
GstD4	DRSC16685	-2.49	-2.58	0.826	inactive
GstD4	DRSC27765	0.614	-0.588	-3.63	inactive
GstD4	DRSC38958	2.15	0.712	0.364	inactive

Continued, starting with the last 2 of the part before.
Gene	DRSC id	Wolbachia per cell robust z, rep 1	Wolbachia per cell robust z, rep 2	Wolbachia per cell robust z, rep 3	activity call
GstD4	DRSC27765	0.614	-0.588	-3.63	inactive
GstD4	DRSC38958	2.15	0.712	0.364	inactive
Cadps	DRSC22200	0.44	-1.2	-0.164	inactive
Cadps	DRSC29264	0.00915	-0.737	0.00257	inactive
Zcchc7	DRSC11099	-0.295	-0.057	-0.806	inactive
Zcchc7	DRSC25470	0.79	2.97	1.81	active
Rab14	DRSC03403	-6.11	-0.202	-1.07	inactive
Rab14	DRSC28941	0.529	-0.386	0.384	inactive
CG30160 + Tsp42Eb	DRSC06791	-0.332	0.438	0.0662	inactive
CG10912	DRSC06009	-0.533	-0.816	-0.224	inactive
CG10912	DRSC25420	-0.22	-1.07	-0.813	inactive
Grip71	DRSC02042	0.661	0.702	0.294	inactive
CG32708	DRSC18411	-1.59	-0.341	-0.906	inactive
CG32708	DRSC28419	-0.187	2.01	-0.0666	inactive
Tbce	DRSC04897	0.0738	1.06	1.15	inactive
CG12479	DRSC19459	-0.125	-3.58	0.749	inactive
CG12479	DRSC41495	-0.449	0.825	-2.14	inactive
Hph	DRSC12164	-0.518	-0.553	-1.65	inactive
Hph	DRSC12251	0.272	0.94	-0.503	inactive
Hph	DRSC21876	0.243	0.547	1.3	inactive
Hph	DRSC24780	0.264	1.9	0.752	inactive
Hph	DRSC25979	-1.49	0.219	0.288	inactive
CG32148	DRSC09338	-1.01	-1.12	-0.988	inactive
CG32148	DRSC28787	-0.196	0.419	0.553	inactive
CG34308	DRSC38663	-1.6	-1.68	1.14	inactive
CG34308	DRSC40664	0.477	0.0832	-0.163	inactive
CG15563	DRSC15101	0.538	0.76	-4.16	inactive
CG15563	DRSC27442	-1.77	0.646	-1.47	inactive
RpL14	DRSC11269	1.07	0.533	2.36	inactive
Mst36Fb	DRSC28786	-1.09	0.678	-1.17	inactive
Mst36Fb	DRSC41463	-2.33	0.921	1.79	inactive
Lcp65Ad	DRSC11211	-6.44	0.309	0.0895	inactive
Lcp65Ad	DRSC24630	0.89	0.191	0.873	inactive
CG12659	DRSC17862	0.912	0.0249	0.849	inactive
CG12659	DRSC27326	0.101	-0.926	-0.907	inactive
MRG15	DRSC16731	-1.82	0.831	0.068	inactive
CG5214	DRSC15739	-0.0183	-0.205	0.479	inactive
CG5214	DRSC22842	-4.09	-0.61	-1.4	inactive
CG5214	DRSC25298	-0.61	0.562	-0.0168	inactive
CARPA	DRSC17905	-1.8	0.405	-0.382	inactive
CARPA	DRSC21633	-0.113	-0.119	1.36	inactive
x16	DRSC00960	1.04	0.915	0.203	inactive
x16	DRSC03638	0.721	-6.5	-0.0369	inactive
x16	DRSC23865	0.302	0.345	-0.144	inactive
Hyccin	DRSC06983	-0.117	-0.98	-0.91	inactive
Z600	DRSC11317	-0.114	-1.03	-0.174	inactive
Ccz1	DRSC08439	1.12	-0.541	1.03	inactive
